Experimental data as given in US12419856B1, “Method of treating middle east respiratory syndrome (MERS)” (dated 2025).

What was measured:
[1] = biological target: T1, MERS-COV PLpro (Middle East respiratory syndrome-related coronavirus, UniProt K9N7C7, I1717L/K1573G); settings: previous finding of the applicant; cited from earlier work
[2] = biological target: T1, MERS-COV PLpro; settings: previously tested; cited from earlier work
[3] = biological target: T1, MERS-COV PLpro; settings: tested here
[4] = biological target: T1, MERS-COV PLpro

## COc1cccc2c1C(=O)c1c(O)c3c(c(O)c1C2=O)C[C@@](O)(C(=O)CO)C[C@@H]3O[C@H]1C[C@H](N)[C@H](O)[C@H](C)O1
[1]
  increase of melting temperature: 20 °C
[2]
  inhibitory effect against MERS-PLpro (in words): showed inhibitory effect

## Nc1nc2c(ncn2COCCO)c(=O)[nH]1
[2]
  inhibitory effect against MERS-PLpro (in words): only the former showed inhibitory effect

## CN(C)C(=N)N=C(N)N
[3]
  inhibitory effect against MERS-PLpro (in words): not effective
[4]; at any concentration
  effect on Tm of MERS-PLpro (in words): did not alter the Tm

## O=c1c(O)c(-c2ccc(O)c(O)c2)oc2cc(O)ccc12
[4]; at IC50 concentration
  lowering of ΔTm: 13 °C
[4]; mean over various concentrations
  variation in melting temperature (ΔTm), mean: 13.94 °C

Like-named read-outs stand apart in the source and are kept apart here.
